Measurements from US20240140975A1, “ANTIVIRAL APPLICATION OF NUCLEOSIDE ANALOG OR COMBINATION FORMULATION CONTAINING NUCLEOSIDE ANALOG” (priority 2020, published 2024).

Assay: Pharmacokinetic evaluation in mice
Settings: oral administration

Structure (SMILES) | plasma exposure relative to that of GS-441524 [times]
[2H]c1cc([C@]2(C#N)O[C@H](C([2H])([2H])O)[C@@H](O)[C@H]2O)n2ncnc(N)c12 (stereo in doubt) [Compound A11] | 1.2
[2H]c1cc([C@]2(C#N)O[C@H](CO)[C@@H](O)[C@H]2O)n2ncnc(N)c12 [Compound A9] | 1.3
